Experimental data reported in the supplement of paper PMC9931576.
Human monoclonal antibodies against the spike receptor-binding domain (heavy:light variable regions). IC50 against pseudoviruses bearing the spike of naturally observed variants; lower = stronger; >10 µg/ml means not reached at the top dose. No active / inactive call. The stated detection limit is 0.0005 µg/ml; values near or below 0.001 µg/ml lie at the floor of the assay.

B1: BD56-1426 (protein)
chain 1: EVQLVESGGDLVKPGGSLRLSCAGSGFSFSNAWVSWVRQAPGKGLEWVGRIKDKTDGGTTDYAAPVKGRFIISRDDSKNTLYLQMNRLRTEDTAVYYCSTGVDIVLMMYPDDAFDIWGQGTMVTVSS
chain 2: SSELTQDPAVSVALGQTVRLTCQGDSLRTYYASWYQQKPGQAPVLVIYGKNNRPSGIPDRFSGSTSGNTASLTITGAQAEDEADYYCNSRDSSGNHVVFGGGTKLTVL
B2: BD56-1432 (protein)
chain 1: QVQLVESGGGVVQPGRSLRLSCAVSGFTFRNHGMHWVRQAPGKGLEWVAVIWYDGTNKYYADSVKGRFTISRDNSKNTLYLQMNSLRAEDTAVYYCARDDGVGGTMDDYFDYWGQGTLVTVSS
chain 2: QSVLTQPASASGTPGQRVTISCSGSGSNIGDNYVYWYQQVPGTAPKLLIYRNSQRPSGVPDRFSGSKSGTSASLAISGLRPEDEADYYCAAWDDSLGGWVFGGGTKVTVL
B3: BD56-1409 (protein)
chain 1: QVHLVQSGAEVKKPGASVKVSCKASGYTLTNHYIHWVRQAPGQGLEWMGIINPSGGSTSYAQKFQGRVTMTTDTSTSTVYMELSSLRSEDTAVYYCARDSSYIPQKYYYGLDVWGQGTAVTVSS
chain 2: DIQMTQSPSSLSASVGDRVTITCRASQSISSYLNWYQQKPGKAPKLLIYAASSLQSGVPSRFSGGGSGTDFALTISTLQPEDFATYYCQQSYITPPTFGQGTKVEIK
B4: BD56-1402 (protein)
chain 1: EVQLVQSGAEVTKPGESLKISCQGSGYSFSTYWIHWVRQMPGKGLEWMGIIYPYDSDTRYSPSFQGQVTISADKSINTAYLQWSSLKASDTATYYCARSYNAYYYIMDVWGQGTTVTVSS
chain 2: QSVLTQPPSASGTPGQRVTISCSGSSSNIGSNTVNWYQQFPGTAPKLLMYSQNQRPSGVPDRFAGTKSGTSASLAISGLQSEDEADYYCAAWDDSLNGWVFGGGTKLTVL
B5: BD56-1404 (protein)
chain 1: QLPLQESGPGLVKPSETLSLTCTVSGGSIKRSSYYWGWIRQPPGKGLEWIGIIYYSGSTYYNPSLKSRVSISVDMSKNQFSLRLSSVTAADTALYYCARQLGYCSGGTCYSPYGMDVWGQGTTVTVSS
chain 2: DIQMTQSPSSLSASVGDRVTLTCRASQSITNYLNWYQQKPGEAPKLLIYAASSLQSGVPSRFSGSGSGTDFTLTISSLQPEDFATYYCQQSDTTPWTFGQGTKVDIK
B6: BD56-1417 (protein)
chain 1: EVQLVESGGGLIKPGGSLRLSCVASGFSFSDAWMSWVRQAPGKGLEWVGHIKSYTDGGTTDYAAPVKGRFTISRDDSKNTVYLQMNSLKTEDTAVYYCTEDWYNWNAPDLNGMDVWGQGTTVTVSS
chain 2: DIQMTQSPSSLSASVGDRVTITCRASQSISRYLNWYQKKPGKAPKLLIYAASNLQSGVPSRFSGSGSGTDFTLTISSLQPEDFATYYCQQSYSTPWTFGQGTKVEIK
B7: COV2-2389 (protein)
chain 1: EVQLVESGGGLVQPGRSLRLSCAASGFTFDDYAMHWVRQAPGKGLEWVSGISWNSGTIGYADSVKGRFIISRDNAKNSLYLQMNSLRPEDTALYYCAKDIIRQGEDGMDVWGQGTTVTVSS
chain 2: DIQMTQSPSSLSASVGDRVTITCRASQNIASYLNWYQQKPGKAPKLLIYAASSLQSGVPSRFSGSGSGTDFTLTISSLQPEEFATYYCQQSYSTPWTFGQGTKVEIK
B8: COV2-2819 (protein)
chain 1: QVQLQESGPGLVKPSQTLSLTCTVSGDSISSAGYYWSWIRQHPGKGLEWIGYIYYSGRTYYNPSLKSRVTMSVDTSKNQFSLRLRSVTAADTAVYYCARVVPTRGPVAWFDPWGQGTLVTVSS
chain 2: DIQMTQSPSSLSASVGDRVTITCRASQSISSYLNWYQQRPGKAPKLLIYAASSLQSGVPSRFSGSGSGTDFTLTISTLQPEDFATYYCQQSYSTLLYTFGQGTKLEIK
B9: BD56-1405 (protein)
chain 1: EVQLVQSGAEVKKAGESLKISCKASGYSFISHWIDWVRQKPGKGLEWLGIIYPGDSDTRYSPSFQGQVTISADKSISTAYLQWNSLKASDTAMYYCARHDSLIHGRLDPWGQGTQVTVSS
chain 2: QSVLTQPPSASGTPGQRITISCSGSSSNIGSNTVNWYHQLTGTAPKLLIFGNNQRPSGVPDRVSASKSGTSASLAISGLRSEDEAEYYCAAWDDSLNGYVFGTGTKVTVL
B10: BD56-1437 (protein)
chain 1: EVQVVESGGGLVQPGGSLRLSCAASGFTFSNYDMHWVRQVTGKGLEWVSIIGTAGDAYYPDSVKGRFTSSRENAKNSLYLQMNSLRAGDTGVYYCARGRGGTYYEGPYLDYWGQGTLVTVSS
chain 2: DIQMTQSPSSLSASVGDRVTITCRASQTIRNYLNWYQQKPGKAPKLLIYAASSLQSGVPSRFSGSGSGTEFSLIISSLQPEDFATYYCQQSYSTPPLTFGGGTKVEIK
B11: BD56-1416 (protein)
chain 1: QVQLVQSGAEVKKPGASVKVSCKASGYSFTSYGISWVRQAPGQGLEWMGWISTYDVNTNYAQKFQGRVIMTTDTSTSTVYMELRSLRSDDTAVYFCARVFDFWSGYTQYYFDYWGQGTLVTVSS
chain 2: EIVMTQSPAILSVSSGERATLSCRASQSVNSNLAWYQQKPGQAPRLLIYGASTRATGIPVRFSGSGSGTDFTLTISSLQSEDFAVYYCQQYDNWPPTWTFGQGTKVEIK
B12: BD56-1415 (protein)
chain 1: EVQLVESGGGLVQPGRSLRLSCAASGFTSDDYAMHWVRQAPGKGLEWVSGISWNSVSIGYADSVKGRFTISRDNAKNSLYLQMKSLRAEDTALYYCAKGQNLGSGSYYPAGMDVWGQGTTVTVSS
chain 2: EIVMTQSPATLSVSPGERATLSCRASQSVFSDLAWYQQKPGQAPRLLIYSASIRATGIPTRFSGTGSETEFTLTISSLQSEDFAVYYCQQYNNWPETFGQGTKVEIK

target: SARS-CoV-2 Omicron BA.1 spike pseudovirus; test: pseudovirus neutralization IC50; higher = weaker neutralization
Protocol: (§1)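 Single-round VSV luciferase pseudovirus mixed with antibody dilutions for 1 h and put on Huh-7 cells for about a day; IC50 from the dose curve.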

Binder | pseudovirus neutralization IC50 [µg/mL]
B1 | > 10
B2 | 0.556
B3 | > 10
B4 | 0.541
B5 | > 10
B6 | 1.61
B7 | > 10
B8 | > 10
B9 | 0.412
B10 | > 10
B11 | 0.617
B12 | > 10

target: SARS-CoV-2 Omicron BA.2 spike pseudovirus; test: as above
Protocol: as §1

Binder | pseudovirus neutralization IC50 [µg/mL]
B1 | > 10
B2 | 0.423
B3 | > 10
B4 | 0.608
B5 | > 10
B6 | 1.32
B7 | > 10
B8 | > 10
B9 | 0.52
B10 | > 10
B11 | 1.4
B12 | > 10

target: SARS-CoV-2 Omicron BA.2.75 spike pseudovirus; test: as above
Protocol: as §1

Binder | pseudovirus neutralization IC50 [µg/mL]
B1 | > 10
B2 | 0.311
B3 | > 10
B4 | 0.416
B5 | > 10
B6 | 0.514
B7 | > 10
B8 | > 10
B9 | 0.532
B10 | > 10
B11 | 0.569
B12 | > 10

target: SARS-CoV-2 Omicron BA.5 spike pseudovirus; test: as above
Protocol: as §1

Binder | pseudovirus neutralization IC50 [µg/mL]
B1 | > 10
B2 | 0.268
B3 | > 10
B4 | 0.492
B5 | > 10
B6 | 1.79
B7 | > 10
B8 | > 10
B9 | 0.788
B10 | > 10
B11 | 4.63
B12 | > 10

target: SARS-CoV-2 Omicron BQ.1.1 spike pseudovirus; test: as above
Protocol: as §1

Binder | pseudovirus neutralization IC50 [µg/mL]
B1 | > 10
B2 | 1.3
B3 | > 10
B4 | 0.528
B5 | > 10
B6 | 2.29
B7 | > 10
B8 | > 10
B9 | 0.528
B10 | > 10
B11 | 2.35
B12 | > 10

target: SARS-CoV-2 Omicron XBB spike pseudovirus; test: as above
Protocol: as §1

Binder | pseudovirus neutralization IC50 [µg/mL]
B1 | > 10
B2 | 1.12
B3 | > 10
B4 | 1.15
B5 | > 10
B6 | 2.93
B7 | > 10
B8 | > 10
B9 | 0.81
B10 | > 10
B11 | 3.04
B12 | > 10

target: SARS-CoV-2 early D614G spike pseudovirus; test: as above
Protocol: as §1

Binder | pseudovirus neutralization IC50 [µg/mL]
B1 | > 10
B2 | 1.15
B3 | > 10
B4 | 1.19
B5 | > 10
B6 | 2.71
B7 | 0.613
B8 | 0.00672
B9 | 0.913
B10 | > 10
B11 | 2.78
B12 | > 10
